From article doi:10.1101/2023.11.21.567704v1 (biorxiv, 2023)

The chains behind the UniProt entries cited, without tags or fusion partners.
UniProt P9WNC5, whole entry: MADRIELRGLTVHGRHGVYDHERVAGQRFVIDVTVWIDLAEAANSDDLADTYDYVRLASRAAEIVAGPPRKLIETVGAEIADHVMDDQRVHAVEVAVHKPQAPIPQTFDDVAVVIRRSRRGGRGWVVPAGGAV

What follows are compounds tested against MtbFolB (Mycobacterium tuberculosis, UniProt P9WNC5) (assay: end-point fluorescence assay). Details: 5 µM DHNP, 14 nM enzyme, pH 8.0, 24 °C, 1% DMSO.
Format: biochemical
With `COc1ccc(NC(=O)c2c(C)sc3c(=O)n(C4CCCCC4)cnc23)c(OC)c1` the IC50 was greater than 100 µM.
With `COc1ccc(C)cc1NC(=O)c1c(C)sc2c(=O)n(C3CCCCC3)cnc12` the IC50 was greater than 100 µM.
For `CCc1ccc(NC(=O)c2cn(-c3cc(-c4nc(CC)no4)ccn3)cn2)cc1`, the IC50 was greater than 100 µM.
In the case of `CN(C)c1ccc(NS(=O)(=O)c2ccc(Br)s2)cc1`, the IC50 is reported as 15.4 µM.
`CCOC(=O)c1cc(S(=O)(=O)Nc2ccc(N(C)C)cc2)n[nH]1` showed an IC50 of 2.6 µM.
`Cc1nn(-c2nc3ccccc3s2)c2c1C(c1ccccc1OC(C)C)SCC(=O)N2` (stereo not drawn) gave an IC50 greater than 100 µM.
